Measured values taken from patent US12685320B2, “Food processing oxidation treatment forumlations and methods” (Clean Chemistry, Inc., priority 2023, dated 2026).

Tested on: catalase enzyme
Conditions: 4 mL oxidant solution added to 40 mL untreated water, room temperature, 4 minutes

OO [hydrogen peroxide]
thickness of foam head formed: approximately 1 inch
